DMS reactivity of the HIV-1 5' RNA in monomer and dimer

Source: Ye et al. 2022 (doi:10.1038/s41594-022-00746-2), supplementary data.

Sequence of the HIV-1 NL4-3 5' RNA, positions 1 to 437, as numbered in the source:
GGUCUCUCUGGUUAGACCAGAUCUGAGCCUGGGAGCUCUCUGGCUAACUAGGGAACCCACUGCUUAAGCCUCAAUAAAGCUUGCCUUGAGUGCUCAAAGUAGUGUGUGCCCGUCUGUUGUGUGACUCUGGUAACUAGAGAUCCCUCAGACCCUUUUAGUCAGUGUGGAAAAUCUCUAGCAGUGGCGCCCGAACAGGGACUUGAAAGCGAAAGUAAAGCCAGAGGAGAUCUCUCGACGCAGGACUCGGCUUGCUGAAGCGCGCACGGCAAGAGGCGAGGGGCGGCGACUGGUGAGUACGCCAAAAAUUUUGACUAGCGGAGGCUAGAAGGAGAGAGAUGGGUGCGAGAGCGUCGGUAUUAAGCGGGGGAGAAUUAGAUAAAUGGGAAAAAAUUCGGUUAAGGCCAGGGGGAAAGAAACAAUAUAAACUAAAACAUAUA

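Mutant RNA libraries with 1G, 2G or 3G starts, with or without cap, were folded at 37 °C for 30 min. High salt was 300 mM KCl and 5 mM MgCl2, low salt 40 mM KCl and 0.1 mM MgCl2; monomer and dimer were parted on a native gel. Gel slices were treated with 170 mM dimethyl sulfate for 15 min at 37 °C and read by mutational profiling against an ethanol control.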

Values are winsor-normalised DMS reactivities of A and C; higher means more reactive, usually unpaired.
One numbering serves 1G, 2G and 3G.
A position is written with its base.

* C349 = 1G uncapped high-salt monomer 0.36; 1G capped low-salt monomer 0.32; 3G uncapped low-salt dimer 0.24
* C352 = 1G uncapped high-salt monomer 0.42; 1G capped low-salt monomer 0.46; 3G uncapped low-salt dimer 0.39
* A356 = 1G uncapped high-salt monomer 1.08; 1G capped low-salt monomer 1.08; 3G uncapped low-salt dimer 0.95
* A359 = 1G uncapped high-salt monomer 0.40; 1G capped low-salt monomer 0.37; 3G uncapped low-salt dimer 0.42
* A360 = 1G uncapped high-salt monomer 0.39; 1G capped low-salt monomer 0.35; 3G uncapped low-salt dimer 0.43
* C362 = 1G uncapped high-salt monomer 0.28; 1G capped low-salt monomer 0.27; 3G uncapped low-salt dimer 0.32
* A368 = 1G uncapped high-salt monomer 0.98; 1G capped low-salt monomer 1.03; 3G uncapped low-salt dimer 0.92
* A370 = 1G uncapped high-salt monomer 0.50; 1G capped low-salt monomer 0.53; 3G uncapped low-salt dimer 0.48
* A371 = 1G uncapped high-salt monomer 0.95; 1G capped low-salt monomer 0.92; 3G uncapped low-salt dimer 0.99
* A374 = 1G uncapped high-salt monomer 0.45; 1G capped low-salt monomer 0.46; 3G uncapped low-salt dimer 0.39
* A376 = 1G uncapped high-salt monomer 0.73; 1G capped low-salt monomer 0.73; 3G uncapped low-salt dimer 0.70
* A378 = 1G uncapped high-salt monomer 0.23; 1G capped low-salt monomer 0.23; 3G uncapped low-salt dimer 0.24
* A379 = 1G uncapped high-salt monomer 0.57; 1G capped low-salt monomer 0.60; 3G uncapped low-salt dimer 0.55
* A380 = 1G uncapped high-salt monomer 0.83; 1G capped low-salt monomer 0.84; 3G uncapped low-salt dimer 0.75
* A385 = 1G uncapped high-salt monomer 0.53; 1G capped low-salt monomer 0.54; 3G uncapped low-salt dimer 0.58
* A386 = 1G uncapped high-salt monomer 1.36; 1G capped low-salt monomer 1.33; 3G uncapped low-salt dimer 1.63
* A387 = 1G uncapped high-salt monomer 0.24; 1G capped low-salt monomer 0.23; 3G uncapped low-salt dimer 0.30
* A388 = 1G uncapped high-salt monomer 0.08; 1G capped low-salt monomer 0.08; 3G uncapped low-salt dimer 0.09
* A389 = 1G uncapped high-salt monomer 0.17; 1G capped low-salt monomer 0.17; 3G uncapped low-salt dimer 0.15
* A390 = 1G uncapped high-salt monomer 0.92; 1G capped low-salt monomer 0.91; 3G uncapped low-salt dimer 0.95
* C393 = 1G uncapped high-salt monomer 0.64; 1G capped low-salt monomer 0.69; 3G uncapped low-salt dimer 0.53
* A398 = 1G uncapped high-salt monomer 0.24; 1G capped low-salt monomer 0.21; 3G uncapped low-salt dimer 0.18
* A399 = 1G uncapped high-salt monomer 0.33; 1G capped low-salt monomer 0.31; 3G uncapped low-salt dimer 0.21
* C402 = 1G uncapped high-salt monomer 0.06; 1G capped low-salt monomer 0.04; 3G uncapped low-salt dimer 0.08
* C403 = 1G uncapped high-salt monomer 0.04; 1G capped low-salt monomer 0.04; 3G uncapped low-salt dimer 0.05
* A404 = 1G uncapped high-salt monomer 0.23; 1G capped low-salt monomer 0.17; 3G uncapped low-salt dimer 0.31
* A410 = 1G uncapped high-salt monomer 0.38; 1G capped low-salt monomer 0.40; 3G uncapped low-salt dimer 0.42
* A411 = 1G uncapped high-salt monomer 0.78; 1G capped low-salt monomer 0.83; 3G uncapped low-salt dimer 0.93
* A412 = 1G uncapped high-salt monomer 0.49; 1G capped low-salt monomer 0.51; 3G uncapped low-salt dimer 0.56
* A414 = 1G uncapped high-salt monomer 0.46; 1G capped low-salt monomer 0.48; 3G uncapped low-salt dimer 0.49
* A415 = 1G uncapped high-salt monomer 0.21; 1G capped low-salt monomer 0.21; 3G uncapped low-salt dimer 0.23
* A416 = 1G uncapped high-salt monomer 0.42; 1G capped low-salt monomer 0.42; 3G uncapped low-salt dimer 0.47
* C417 = 1G uncapped high-salt monomer 0.79; 1G capped low-salt monomer 0.84; 3G uncapped low-salt dimer 0.54

4 of these entries, quoted again:

{"position": "A378", "domain": "none", "1G uncapped high-salt monomer": 0.23, "1G capped low-salt monomer": 0.23, "3G uncapped low-salt dimer": 0.24}
{"position": "A410", "domain": "none", "1G uncapped high-salt monomer": 0.38, "1G capped low-salt monomer": 0.40, "3G uncapped low-salt dimer": 0.42}
{"position": "A370", "domain": "none", "1G uncapped high-salt monomer": 0.50, "1G capped low-salt monomer": 0.53, "3G uncapped low-salt dimer": 0.48}
{"position": "A359", "domain": "none", "1G uncapped high-salt monomer": 0.40, "1G capped low-salt monomer": 0.37, "3G uncapped low-salt dimer": 0.42}